Data reported in patent publication US10206902B2, “Mono- or di-substituted indoles as dengue viral replication inhibitors” (priority 2014, dated 2019).

Assays:
Type in all cases: cell-based, Dengue virus
[1] = system: DENV-3 strain H87 prototype; assay: Tetravalent RT-qPCR assay Protocol B, serotype 3; settings: serotype 3 H87
Description: (§1) Vero cells (4×10^4) were seeded in 96-well plates. […] Following a 2 hour incubation period, the cell monolayer was washed 3 times with assay medium to remove residual, non-adsorbed virus and cultures were further incubated for either 4 days (DENV-2 NGC-Tongalike) or 7 days (DENV-1 Djibouti strain D1/H/IMTSSA/98/606, DENV-3 strain H87 prototype, DENV-4 strain H241′) in the presence of the inhibitor. Supernatant was harvested and viral RNA load was determined by real-time quantitative RT-PCR. The 50% effective concentration (EC50), which is defined as the compound concentration that is required to inhibit viral RNA replication by 50%, was determined using logarithmic interpolation (Tables 7 and 8). RNA was isolated from 100 μL supernatant with the NucleoSpin 96 Virus kit (Filter Service, Duren, Germany) as described by the manufacturer. The sequences of the TaqMan primers (DENV-For, DENV-Rev; Table 5) and TaqMan probes (DENV-Probe Table 5) were selected from non-structural gene 3 (NS3) or NS5, of the respective flaviviruses using Primer Express software (version 2.0; Applied Biosystems, Lennik, Belgium). The TaqMan probe was fluorescently labelled with 6-carboxyfluorescein (FAM) at the 5′ end as the reporter dye, and with minor groove binder (MGB) at the 3′ end as the quencher (Table 5). One-step, quantitative RT-PCR was performed in a total volume of 25 μL, containing 13.9375 μL H2O, 6.25 μL master mix (Eurogentec, Seraing, Belgium), 0.375 μL forward primer, 0.375 μL reverse primer, 1 μL probe, 0.0625 μL reverse transcriptase (Eurogentec) and 3 μL sample. RT-PCR was performed using the ABI 7500 Fast Real-Time PCR System (Applied Biosystems, Branchburg, N.J., USA) using the following conditions: 30 min at 48° C. and 10 min at 95° C., followed by 40 cycles of 15 s at 95° C. and 1 min at 60° C. The data was analyzed using the ABI PRISM 7500 SDS software (version 1.3.1; Applied Biosystems). For absolute quantification, standard curves were generated using 10-fold dilutions of template preparations of known concentrations.

[2] = system: DENV-2 NGC-Tongalike; assay: Tetravalent RT-qPCR assay Protocol B, serotype 2; settings: serotype 2 NGC-Tongalike
Description: as §1

[3] = system: DENV-2 16681 strain; assay: DENV-2 antiviral assay (eGFP-labelled virus in Vero cells); settings: SI=CC50/EC50, DENV-2 antiviral assay
Description: The antiviral activity of all the compounds of the invention was tested against DENV-2 16681 strain which was labeled with enhanced green fluorescent protein (eGPF). The culture medium consists of minimal essential medium supplemented with 2% of heat-inactivated fetal calf serum, 0.04% gentamycin (50 mg/mL) and 2 mM of L-glutamine. Vero cells, obtained from ECACC, were suspended in culture medium and 25 μL was added to 384-well plates (2500 cells/well), which already contain the antiviral compounds. Typically, these plates contain a 4-fold serial dilution of 9 dilution steps of the test compound at 200 times the final concentration in 100% DMSO (200 nL). In addition, each compound concentration is tested in quadruplicate (final concentration range: 25 μM-0.00038 μM). Finally, each plate contains wells which are assigned as virus controls (containing cells and virus in the absence of compound), cell controls (containing cells in the absence of virus and compound) and medium controls (containing medium in the absence of cells, virus and compounds). To the wells assigned as medium control, 25 μL of culture medium was added instead of Vero cells. Once the cells were added to the plates, the plates were incubated for 30 minutes at room temperature to allow the cells to distribute evenly within the wells. Next, the plates were incubated in a fully humidified incubator (37° C., 5% CO2) until the next day. Then, DENV-2 strain 16681, labeled with eGFP, was added at a multiplicity of infection (MOI) of 0.5. Therefore, 15 μL of virus suspension was added to all the wells containing test compound and to the wells assigned as virus control. In parallel, 15 μL of culture medium was added to the medium and cell controls. Next, the plates were incubated for 3 days in a fully humidified incubator (37° C., 5% CO2). At the day of the read out, the eGFP fluorescence was measured using an automated fluorescence microscope at 488 nm (blue laser). Using an in-house LIMS system, inhibition dose response curves for each compound were calculated and the half maximal effective concentration (EC50) was determined. Therefore, the percent inhibition (I) for every test concentration is calculated using the following formula: I=100*(ST−SCC)/(SVC−SCC); ST, SCC and SVC are the amount of eGFP signal in the test compound, cell control and virus control wells, respectively. The EC50 represents the concentration of a compound at which the virus replication is inhibited with 50%, as measured by a 50% reduction of the eGFP fluorescent intensity compared to the virus control. The EC50 is calculated using linear interpolation (Table 1).

Row | Compound | SI [1] | SI [2] | SI [3]
1 | COc1cc(NC(C(=O)c2c[nH]c3cc(F)c(F)cc23)c2ccc(F)cc2OC)cc(OCCO)c1 (single isomer, unassigned) [Compound 10B, 1-(5,6-difluoro-1H-indol-3-yl)-2-(4-fluoro-2-methoxy-phenyl)-2-((3-(2-hydroxyethoxy)-5-methoxyphenyl)amino)ethanone] | >337 | 6750 | 2565
2 | COc1cc(NC(C(=O)c2c[nH]c3c(C)c(OC)ccc23)c2ccc(F)cc2OC)cc(OCCO)c1 (single isomer, unassigned) [Compound 11A, 2-(4-fluoro-2-methoxyphenyl)-2-((3-(2-hydroxyethoxy)-5-methoxyphenyl)amino)-1-(6-methoxy-7-methyl-1H-indol-3-yl)ethanone] | 261 | 17600 | 10981
3 | COc1cc(NC(C(=O)c2c[nH]c3c(F)cc(C)cc23)c2ccc(F)cc2OC)cc(OCCO)c1 (single isomer, unassigned) [Compound 12B, 2-(4-fluoro-2-methoxyphenyl)-1-(7-fluoro-5-methyl-1H-indol-3-yl)-2-((3-(2-hydroxyethoxy)-5-methoxyphenyl)amino)ethanone] | 133 | 8070 | 1063
